{
  "source": "paper PMC6911215",
  "about": "“A structural basis for antibody-mediated neutralization of Nipah virus reveals a site of vulnerability at the fusion glycoprotein apex” (2019)",
  "system": "NiV-F ectodomain (residues G26-D482) with C-terminal GCNt trimerization motif, prefusion, uncleaved, Nipah virus, Q9IH63 26-482",
  "assay": "crystal structure",
  "data": [
    {"substance": "NiV-F ectodomain (residues G26-D482) with C-terminal GCNt trimerization motif, prefusion, uncleaved", "values": [
      {"measurement": "result", "value": "binds"}
    ]}
  ]
}
